Anti-infective test results gathered from many reports (values: NIAID ChemDB through PubChem).

Shared fields: tests in culture; species: HIV-1; cells: PBMC; endpoint: EC50

An empty or dashed field is not shown. ECn: concentration that inhibits the pathogen or its effect by n%. Neighbouring rows are from separate reports.

compound	strain	mutations	read by	setting	result
CC(C)Nc1cccnc1N1CCN(C(=O)c2cc3cc(NS(C)(=O)=O)ccc3[nH]2)CC1	NRTI resistant (RT Y181C) A17	RT-Y181C	p24		>100 µM
C[C@H](Cn1cnc2c(N)ncnc21)OCP(=O)(O)O	BaL		luciferase		1.69 µM
O=c1[nH]cnc2c1ncn2[C@H]1CC[C@@H](CO)O1	XM-Q151M	RT-A62V V75I F77C F116Y Q151M	p24		<106 µM
C[C@@H](NC(=S)Nc1ccc(Cl)cn1)c1cccc2ccccc12	A17V(RT-K103N Y181C)	RT-K103N Y181C	p24		0.367 µM
Nc1ncnc2c1ncn2CCOCP(=O)(O)O	LAI				0.42 µM
Nc1ccn([C@@H]2CS[C@H](CO)O2)c(=O)n1	Subtype B isolate		p24		0.01 µM
CNC(=O)[C@H](Cc1ccccc1)NC(=O)OC[C@H]1O[C@@H](n2cc(C)c(=O)[nH]c2=O)C[C@@H]1N=[N+]=[N-]	LAI		XTT		3 µM
CO[P@](=O)(c1cc(C)cc(/C=C/C#N)c1)c1c(C(N)=O)[nH]c2ccc(Cl)c(F)c12	WT (NL4-3)				0.0015 µM
CC(C)CN(C[C@@H](O)[C@H](Cc1ccccc1)NC(=O)O[C@H]1CCOC1)S(=O)(=O)c1ccc(N)cc1	BaL		p24		0.0483 µM
CC(C)(C)NC(=O)[C@@H]1C[C@@H]2CCCC[C@@H]2CN1C[C@@H](O)[C@H](Cc1ccccc1)NC(=O)[C@H](CC(N)=O)NC(=O)c1ccc2ccccc2n1	NL4-3 X4		p24		0.01 µM
COC(=O)[C@H](Cc1c[nH]c2ccccc12)NC(=O)OC[C@H]1O[C@@H](n2cc(C)c(=O)[nH]c2=O)C[C@@H]1N=[N+]=[N-]	LAI		XTT		10 µM
CC[C@H](C)[C@H]1NC(=O)[C@@H](NC(=O)[C@@H](CC(C)C)N(C)S(=O)(=O)c2ccc(C)cc2)[C@@H](C)OC(=O)[C@H](Cc2ccc(OC)cc2)N(C)C(=O)[C@@H]2CCCN2C(=O)[C@H](CC(C)C)NC(=O)[C@H](C(C)C)OC(=O)C[C@@H]1O	JR		luciferase		0.016 µM
COc1ccc(S(=O)(=O)N(CC(C)C)C[C@@H](O)[C@H](Cc2ccccc2)NC(=O)O[C@H]2CO[C@H]3OCC(F)(F)[C@H]32)cc1	Clinical isolate	L10I K14R L33I M36I M46I F53I K55R I62V L63P A71V G73S V82A L90M I93L		clinical isolate, multidrug-resistant	0.014 µM
COc1cc(OC)nc(N2C(=O)CSC2c2c(Cl)cccc2Cl)n1	VB51		p24 / ELISA		0.003 µg/mL
CC(C)(C)NC(=O)[C@@H]1C[C@@H]2CCCC[C@@H]2CN1C[C@@H](O)[C@H](Cc1ccccc1)NC(=O)[C@H](CC(N)=O)NC(=O)c1ccc2ccccc2n1	ROJO		RT activity	clinical isolate	0.009 µM
CCO/N=C(\c1ccc(Br)cc1)C1CCN(C2(C)CCN(C(=O)c3c(C)cc[n+]([O-])c3C)CC2)CC1	302072 R5 CLADE B		p24		0.0019 µM
Nc1ncnc2c1ncn2[C@@H]1C[C@@H](O)[C@H](CO)O1	LAV		RT activity		>10 µM
Cc1cn([C@H]2C[C@H](N=[N+]=[N-])[C@@H](CO)O2)c(=O)[nH]c1=O	Clinical isolate	M184V	single cycle / fluorescence		0.00263 µM
CC(C)=CCN1Cc2cccc3[nH]c(=S)n(c23)C[C@@H]1C		RT-E89G	p24		0.18 µM
CC(C)(C)NC(=O)[C@@H]1CN(Cc2cccnc2)CCN1C[C@@H](O)C[C@@H](Cc1ccccc1)C(=O)N[C@H]1c2ccccc2C[C@H]1O	006		p24		0.005 µM
CC(C)n1nc(-c2ccc3oc(N)nc3c2)c2c(N)ncnc21	92UG031		p24 / ELISA		0.01015 µM
Cc1csc(NC(=S)N[C@H](C)c2cccc3ccccc23)n1	RT multidrug-resistant (L74V V106A T215Y)	RT-L74V V106A T215Y	p24		0.021 µM
Cc1cn([C@H]2C[C@H](N=[N+]=[N-])[C@@H](CO)O2)c(=O)[nH]c1=O	WOME (syncytium-inducing)		cytopathic effect / XTT		0.02 µM
CC(C)CN(C[C@@H](O)[C@H](Cc1ccccc1)NC(=O)O[C@H]1CCOC1)S(=O)(=O)c1ccc(N)cc1	HXB2	PR-M46I L63P A71V V82F I84V	p24		<1.33 µM
CCCCN1C(=O)C(CC2CCCCC2)NC(=O)C12CCN(Cc1cnc(-c3ccccc3)[nH]1)CC2	BaL		p24		0.24 µM
CCCCCCCCCCCCCCCCCCCCCCOC[C@H](CO[C@]1(C(=O)O)C[C@H](OS(=O)(=O)O)[C@@H](NC(C)=O)[C@H]([C@H](OS(=O)(=O)O)[C@@H](COS(=O)(=O)O)OS(=O)(=O)O)O1)OCCCCCCCCCCCCCCCCCCCCCC	10001 Clinical isolate		p24		20 µM
CC(C)(C)NC(=O)[C@@H]1C[C@@H]2CCCC[C@@H]2CN1C[C@@H](O)[C@H](Cc1ccccc1)NC(=O)[C@H](CC(N)=O)NC(=O)c1ccc2ccccc2n1	NL4-3 X4		p24		0.01 µM
CCC[C@@]1(CCc2ccccc2)CC(O)=C([C@H](CC)c2cccc(NS(=O)(=O)c3ccc(C(F)(F)F)cn3)c2)C(=O)O1	Isolate UJ00004		p24		<0.8 µM
CCCCN1C(=O)C(CC2CCCCC2)NC(=O)C12CCN(Cc1ccc3c(c1)OCCO3)CC2	MM	MDR	p24		0.05 µM
COc1ccc(Sc2nc(N)nc3c2ncn3C[C@@H](CF)OP(=O)(O)O)cc1	NL4-3		luciferase		>100 µM
CC(C)(C)NC(=O)[C@@H]1C[C@@H]2CCCC[C@@H]2CN1C[C@@H](O)[C@H](Cc1ccccc1)NC(=O)[C@H](CC(N)=O)NC(=O)c1ccc2ccccc2n1	MOKW		p24		0.004 µM
CC(C)(C)NC(=O)[C@@H]1C[C@@H]2CCCC[C@@H]2CN1C[C@@H](O)[C@H](Cc1ccccc1)NC(=O)[C@H](CC(N)=O)NC(=O)c1ccc2ccccc2n1	ESP2-0		p24		0.005 µM
CC[C@H](C)[C@H]1NC(=O)[C@@H](NC(=O)[C@@H](C)NC)[C@@H](C)OC(=O)[C@H](Cc2ccc(OC)cc2)N(C)C(=O)[C@@H]2CCCN2C(=O)[C@H](CC(C)C)NC(=O)[C@@H](C)C(=O)[C@H](C(C)C)OC(=O)C[C@@H]1O	NL4-3		luciferase		10.27 µM
CCC(=O)c1ccc(F)c([C@H]2C[C@H]2NC(=O)Nc2ccc(C#N)cn2)c1O			p24 / ELISA		<0.001 µM
Cc1cn([C@H]2C[C@H](N=[N+]=[N-])[C@@H](CO)O2)c(=O)[nH]c1=O	NL-XM WT		p24		<0.12 µM
Nc1nc2c(ccn2C[C@@H](CF)OCP(=O)(O)O)c(=O)[nH]1	NL4-3		luciferase		>100 µM
Cc1c(O)cccc1C(=O)N[C@@H](CSc1ccccc1)[C@H](O)CN1C[C@H]2CCCC[C@H]2C[C@H]1C(=O)NC(C)(C)C	HXB2	PR-M46I L63P A71V V82F I84V	p24		<0.45 µM
COc1cc(C[C@H](C)[C@H](C)Cc2ccc(O)c(O)c2)ccc1O	IIIB		p24		0.8 µg/mL
O=C1N(Cc2ccc(CO)cc2)[C@H](Cc2ccccc2)[C@H](O)[C@@H](O)[C@@H](Cc2ccccc2)N1Cc1ccc(CO)cc1	IIIB		virus yield		<0.14 µM
Cc1cc(C)nc(N2C(=O)CSC2c2c(Cl)cccc2[N+](=O)[O-])c1	N119		p24 / ELISA		0.95 µg/mL
COC(=O)[C@H](Cc1ccccc1)NC(=O)OC[C@H]1O[C@@H](n2cc(C)c(=O)[nH]c2=O)C[C@@H]1N=[N+]=[N-]	LAI		XTT		20 µM
CC(C)[C@H](NC(=O)c1ccc2ccccc2n1)C(=O)N[C@@H](Cc1ccccc1)[C@H](O)CN1CC[C@@H](OCc2ccncc2)C[C@H]1C(=O)NC(C)(C)C	VR1372		p24 / ELISA / antigen		0.004 µM
Cc1cn([C@H]2C[C@H](N=[N+]=[N-])[C@@H](CO)O2)c(=O)[nH]c1=O	NL4-3		p24		0.013 µM
O=c1[nH]cnc2c1ncn2[C@H]1CC[C@@H](CO)O1	Subtype B isolate		p24		0.4 µM
CC(C)(C)NC(=O)[C@@H]1C[C@@H]2CCCC[C@@H]2CN1C[C@@H](O)[C@H](Cc1ccccc1)NC(=O)[C@H](CC(N)=O)NC(=O)c1ccc2ccccc2n1	Clinical isolate	L10I L24I I33F E35D M36I N37S M46L I54V R57K I62V L63P A71V G73S V82A			0.53 µM
Nc1ncnc2c1ncn2[C@@H]1C[C@@H](N)[C@H](CO)O1	LAV		RT activity		>10 µM
Cc1cn([C@H]2C[C@H](N=[N+]=[N-])[C@@H](CO)O2)c(=O)[nH]c1=O	JRFL R6		p24		0.007 µM
CC(C)c1nc(CN(C)C(=O)N[C@H](C(=O)N[C@@H](Cc2ccccc2)C[C@H](O)[C@H](Cc2ccccc2)NC(=O)OCc2cncs2)C(C)C)cs1	BaL		p24		0.191 µM
CCO/N=C(\c1ccc(Br)cc1)C1CCN(C2(C)CCN(C(=O)c3c(C)cc[n+]([O-])c3C)CC2)CC1	NL4-3 X4		p24		>1 µM
Cc1cn([C@H]2C[C@H](N=[N+]=[N-])[C@@H](CO)O2)c(=O)[nH]c1=O	LAV				0.002 µM
CC#CCN1C(=O)[C@H]([C@@H](O)C2CCCCC2)NC(=O)C12CCN(Cc1c(C)nn(-c3ccccc3)c1C)CC2	BAL R5		p24		0.032 µM
Nc1ncnc2c([C@H]3CC[C@](CO)(C(F)(F)F)C3)c[nH]c12	LAI				52.5 µM
CC[C@H](C)[C@H]1NC(=O)[C@@H](NC(=O)[C@@H](CC(C)C)N(C)C(=O)c2cc3ccccc3s2)[C@@H](C)OC(=O)[C@H](Cc2ccc(OC)cc2)N(C)C(=O)[C@@H]2CCCN2C(=O)[C@H](CC(C)C)NC(=O)[C@H](C(C)C)OC(=O)C[C@@H]1O	NL4-3				16.7 µM
Cc1ccc(-c2ccc3c(c2)C=C(C(=O)Nc2ccc(C[N+](C)(C)C4CCOCC4)cc2)CCC3)cc1	NL4-3 X4		p24		>1 µM
c1cc(CN2CCCNCCNCCCNCC2)ccc1CN1CCCNCCNCCCNCC1	BaL		MTT		>1 µM
Nc1nc2c(c(F)cn2C[C@@H](CF)OCP(=O)(O)O)c(=O)[nH]1	NL4-3		luciferase		>100 µM
Cc1cn([C@H]2C[C@H](N=[N+]=[N-])[C@@H](CO)O2)c(=O)[nH]c1=O	LAI		XTT		0.01 µM
Cc1cn([C@@H]2C[C@H](O)[C@H](CO)O2)c(=O)[nH]c1=O	LAV		RT activity		>10 µM
C[C@@H](NC(=S)Nc1ccc(Br)cn1)c1cccc2ccccc12	A17	RT-Y181C	p24		0.105 µM
Cc1cc(C)cc([C@]23SCCN2C(=O)c2ccccc23)c1	IIIB		p24 / ELISA		0.016 µM
CCCCCCCCCCCCCCCCCCCCCCOCC(C)(COCCCCCCCCCCCCCCCCCCCCCC)CO[C@]1(C(=O)O)C[C@H](OS(=O)(=O)O)[C@@H](NC(C)=O)[C@H]([C@H](OS(=O)(=O)O)[C@@H](COS(=O)(=O)O)OS(=O)(=O)O)O1	9446 Clinical isolate		p24		10 µM
Cc1ccnc2c1NC(=O)c1cccnc1N2C1CC1	IIIB		p24 / ELISA		0.162 µM
Cc1ccc(NC(=S)N[C@H](C)c2cccc3ccccc23)nc1	A17	RT-Y181C	p24		0.066 µM
CC(C)Nc1cccnc1N1CCN(C(=O)c2cc3cc(NS(C)(=O)=O)ccc3[nH]2)CC1	RT-M184V	RT-E89G	p24		0.008 µM
Cc1cn([C@H]2C[C@H](N=[N+]=[N-])[C@@H](CO)O2)c(=O)[nH]c1=O	IIIB		p24		<0.1 µM
S=C(NCCc1cccs1)Nc1ccc(Br)cn1	IIIB		p24		0.03 µM

A second listing of 5 rows from above:

| compound | strain | mutations | read by | setting | result |
|---|---|---|---|---|---|
| CC#CCN1C(=O)[C@H]([C@@H](O)C2CCCCC2)NC(=O)C12CCN(Cc1c(C)nn(-c3ccccc3)c1C)CC2 | BAL R5 |  | p24 |  | 0.032 µM |
| CO[P@](=O)(c1cc(C)cc(/C=C/C#N)c1)c1c(C(N)=O)[nH]c2ccc(Cl)c(F)c12 | WT (NL4-3) |  |  |  | 0.0015 µM |
| CC(C)n1nc(-c2ccc3oc(N)nc3c2)c2c(N)ncnc21 | 92UG031 |  | p24 / ELISA |  | 0.01015 µM |
| Cc1ccc(NC(=S)N[C@H](C)c2cccc3ccccc23)nc1 | A17 | RT-Y181C | p24 |  | 0.066 µM |
| CCC[C@@]1(CCc2ccccc2)CC(O)=C([C@H](CC)c2cccc(NS(=O)(=O)c3ccc(C(F)(F)F)cn3)c2)C(=O)O1 | Isolate UJ00004 |  | p24 |  | <0.8 µM |